Pooled drug test results. Numbers come from NIAID ChemDB, via PubChem.

Common to all: tests in culture; agent: Human cytomegalovirus

Inhibition is in % at the dose shown (toxicity tests: loss of growth or viability).

compound	strain or isolate	cell line	method	endpoint	dose	result
Nc1nc2c(ncn2COCCO)c(=O)[nH]1	-	HEL	plaque count	inhibition	75 µM	84%
Nc1ccn(C[C@@H](CO)OCP(=O)(O)O)c(=O)n1.O=C(O)P(=O)(O)O	PC92 (ganciclovir- foscarnet-susceptible)	MRC-5	plaque count	EC75	-	0.83 µM
Clc1ccc(Nc2ncnc3ccccc23)cc1Cl	AD169-GFP	HFF	plaque count	inhibition	3.3 µM	92%
O=C(NCc1ccc(Cl)cc1)c1c[nH]c2ccc(C#CCO)cc2c1=O	759rD100	-	plaque count	EC90	-	1.8 µM
COc1cccc(N2CCN(C3=Nc4c(F)cccc4[C@H](CC(=O)O)N3c3cc(C(F)(F)F)ccc3OC)CC2)c1	Clinical isolate 6	-	plaque count	EC50	-	0.0009 µM
OC[C@H]1O[C@@H](n2c(Cl)nc3cc(Cl)c(Cl)cc32)[C@H](O)[C@@H]1O	C4 (D341E)	-	virus yield	EC95	-	25 µM
Nc1ccn(C[C@H]2COP(=O)(O)CO2)c(=O)n1	PAAR	MRC-5	plaque count	EC75	-	0.79 µM
CC(C)Nc1nc2cc(Cl)c(Cl)cc2n1[C@H]1O[C@@H](CO)[C@H](O)[C@@H]1O	AD169	HFF	virus yield	EC90	-	1.1 µM
Nc1ncnc2c1ncn2C=C1CC1CO	VR5406 (ganciclovir-resistant)	-	plaque count	EC90	-	4.3 µM
CC(C)Nc1nc2cc(Cl)c(Cl)cc2n1[C@H]1O[C@@H](CO)[C@H](O)[C@@H]1O	C8910	MRC-5	plaque count	EC50	-	0.19 µM
O=C(NCc1ccc(Cl)cc1)c1c[nH]c2ccc(C#CCO)cc2c1=O	SAL	-	plaque count	EC50	-	1.1 µM
O=C(O)P(=O)(O)O	AD169 (ganciclovir foscarnet-susceptible)	MRC-5	plaque count	EC75	-	86.56 µM
Cn1cc(C(=O)NCc2ccc(Cl)cc2)c(=O)c2cc(CN3CCOCC3)ccc21	GR	HFF	plaque count	inhibition	5.2 µM	90%
CN(C)c1cccc2c(S(=O)(=O)Nc3ccc(NC(=O)C(C)(C)CO)cc3)cccc12	2916R (1263W94-resistant)	HFF	virus yield	EC90	-	0.9 µM
O=c1[nH]c(=O)n([C@H]2C[C@H](O)[C@@H](CO)O2)cc1/C=C/Br	-	HEL	plaque count	inhibition	10 µM	24.3%
Nc1nc2c(ncn2COC(CO)CO)c(=O)[nH]1	C8303	MRC-5	plaque count	EC50	-	0.8 µM
Nc1nc2c(ncn2COC(CO)CO)c(=O)[nH]1	AD169 (ganciclovir foscarnet-susceptible)	MRC-5	plaque count	EC75	-	4.99 µM
O=C(NCc1ccc(Cl)cc1)c1c[nH]c2c(F)cc(CCCO)cc2c1=O	DAVIS	-	virus yield	EC90	-	4.8 µM

Repeating the first 2 entries:

compound	strain or isolate	cell line	method	endpoint	dose	result
Nc1nc2c(ncn2COCCO)c(=O)[nH]1	-	HEL	plaque count	inhibition	75 µM	84%
Nc1ccn(C[C@@H](CO)OCP(=O)(O)O)c(=O)n1.O=C(O)P(=O)(O)O	PC92 (ganciclovir- foscarnet-susceptible)	MRC-5	plaque count	EC75	-	0.83 µM

ECn: concentration that inhibits the pathogen or its effect by n%. Conditions beyond the fields shown may differ between rows. Blank or dashed fields: not listed here.